One data set deals with Vero cells. Particulars: read-out: Cell toxicity counterscreen Vero, CC50; 48 hr, no virus; unit inferred.
Another data set deals with HepG2 cells. The experiment in a line: HepG2 cell viability (cytotoxicity) counterscreen, CellTiter-Glo. Conditions: read-out: Cell toxicity counterscreen HepG2, CC50; 48 hr, no virus; unit inferred. (In general: Counterscreens check selectivity or assay interference.)

What is called CC50 is the concentration that lowers cell viability or growth by half.

As for `CC1=CC2OC3CC(O)[C@](C)([C@@]2(C)C(O)C1=O)[C@]31CO1` (some centres unmarked), the CC50 is more than 50 µM in the data set on Vero cells and more than 30 µM with HepG2 cells.
